# Data from patent US8361765B2, “Enzymic method for the enantioselective reduction of keto compounds” (IEP GmbH, priority 2001, dated 2013).
# Read-outs that look alike come from different tables or passages of the source.
# Experiment: Temperature optimum of the enzymic reaction
# Assay type: biochemical, Lactobacillus minor
# Description: The optimal assay temperature was determined by measuring the enzyme activity from 25° C. to 60° C. The assay mixture corresponded to the standard concentration of ethyl 4-chloro-3-oxo-butanoate and NADPH.
molecule,measurement,setting,value
"L. minor alcohol dehydrogenase: R-specific alcohol dehydrogenase from Lactobacillus minor, SEQ ID NO: 4, overexpressed in Escherichia coli RB 791 (protein, listed as Lactobacillus sp.) MRGSHHHHHHGSMTDRLKGKVAIVTGGTLGIGLAIADKFVEEGAKVVITGRHADVGEKAARSIGGTDVIRFVQHDASDETGWTKLFDTTEEAFGPVTTVVNNAGIAVSKSVEDTTTEEWRKLLSVNLDGVFFGTRLGIQRMKNKGLGASIINMSSIEGEVGDPALGAYNASKGAVRIMSKSAALDCALKDYDVRVNTVHPGYIKTPLVDDLEGAEEMMSQRTKTPMGHIGEPNDIAWICVYLASDESKFATGAEFVVDGGYTAQ",temperature optimum of the enzymic reaction,,55 °C
same,temperature optimum of the enzymic reaction,listed as Lactobacillus minor alcohol dehydrogenase,about 55 °C
